Assay results taken from patent US20040091855A1, “Method for production of antivirals by use of HIV-derived HR1 peptides, and trimers formed therefrom” (priority 2002, published 2004).

Columns and labels:
[1] = Sedimentation equilibrium experiments (oligomerization state); assay type: physicochemical; settings: in solution; peptide 1 μM to 100 μM
[2] = Helicity by circular dichroism; assay type: physicochemical; settings: at 10 μM, 25° C.
[3] = Thermal stability (Tm) by CD signal at 222 nm; assay type: physicochemical; settings: at 10 μM
[4] = tested on: HR2 peptide (SEQ ID NO:33); test: Fluorescence polarization assay of binding to labeled HR2 peptide; set-up: species or system HIV-1; settings: ability to complex with HR2 peptide denoted as yes
HIV IIIB = assay type: cell-based, HIV-1; settings: IIIB

With `CC[C@H](C)[C@H](NC(=O)CNC(=O)[C@H](Cc1c[nH]c2ccccc12)NC(=O)[C@@H](NC(=O)[C@@H](NC(=O)[C@H](C)NC(=O)[C@H](CCC(N)=O)NC(=O)[C@H](CC(C)C)NC(=O)[C@H](C)NC(=O)[C@H](Cc1c[nH]cn1)NC(=O)[C@H](CCC(N)=O)NC(=O)[C@H](CCC(N)=O)NC(=O)[C@H](C)NC(=O)[C@H](CCC(=O)O)NC(=O)[C@@H](NC(=O)[C@H](C)NC(=O)[C@H](CCCNC(=N)N)NC(=O)[C@H](CC(C)C)NC(=O)[C@H](CC(C)C)NC(=O)[C@H](CC(N)=O)NC(=O)[C@H](CC(N)=O)NC(=O)[C@H](CCC(N)=O)NC(=O)[C@H](CCC(N)=O)NC(=O)[C@H](CCC(N)=O)NC(=O)[C@@H](NC(=O)[C@@H](NC(=O)CNC(=O)[C@H](CO)NC(=O)[C@H](CC(C)C)NC(=O)[C@H](CC(C)C)NC(=O)[C@H](CCC(N)=O)NC(=O)[C@H](CCCNC(=N)N)NC(=O)[C@H](C)NC(=O)[C@H](CCC(N)=O)NC(C)=O)[C@@H](C)CC)C(C)C)[C@@H](C)CC)[C@@H](C)O)C(C)C)C(=O)N[C@@H](CCCCN)C(=O)N[C@@H](CCC(N)=O)C(=O)N[C@@H](CC(C)C)C(=O)N[C@@H](CCC(N)=O)C(=O)N[C@@H](C)C(=O)N[C@@H](CCCNC(=N)N)C(=O)N[C@H](C(=O)N[C@@H](CC(C)C)C(=O)N[C@@H](C)C(=O)N[C@H](C(=O)N[C@@H](CCC(=O)O)C(=O)N[C@@H](CCCNC(=N)N)C(=O)N[C@@H](Cc1ccc(O)cc1)C(=O)N[C@@H](CC(C)C)C(=O)N[C@@H](CCCCN)C(=O)N[C@@H](CC(=O)O)C(=O)N[C@@H](CCC(N)=O)C(N)=O)C(C)C)[C@@H](C)CC` [SEQ ID NO:34] the Oligomerization [1] was “as a trimeric”, the Helicity [2] was 100% and the “Stability Tm” value [3] was “Tm 71 °C”. For the same molecule, the HR2 peptide binding [4] was “Yes”, the “Antiviral activity against HIV IIIB IC50” value (HIV IIIB) was 0.19 µg/mL and the “Antiviral activity against HIV IIIB IC90” value (HIV IIIB) was 0.62 µg/mL.
